Data source: PubChem BioAssay AID1259414 (Drosophila RNAi Screening Center, 2018)
The deposit covers about 24,000 reagents; shown is a random part of those that have a named target and a result. Over the whole deposit, about 1,210 (5%) are marked active. 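Inactive calls also include excluded dsRNAs with several or no targets, genes unexpressed in JW18, and well A1, regardless of score.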 A plus sign joins genes that one reagent is predicted to hit.

Assay: 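Host factors increasing or decreasing Wolbachia levels in cultured fly cells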 (primary screen)
Cells: Drosophila JW18 cells infected with Wolbachia
Reagent: long dsRNA against Drosophila genes, 0.25 µg dsRNA per well of a 384-well plate
Time to read-out: 5 days
Treatment: cells persistently infected with Wolbachia before knock-down; no added drug
Detection: 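Imaged fluorescence in situ signal for Wolbachia 23S rRNA per DAPI-counted host cell, given as a robust z-score within each plate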
Reading the numbers: Wolbachia per cell robust z: higher = more Wolbachia per host cell than the plate typical
Rule for the call: 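Hit when robust z is 1.5 or more, or -1.5 or less, in at least two of three replicates; excludes dsRNAs with several or no targets, genes not expressed in JW18 and well A1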

CG14929 [DRSC02411] — Wolbachia per cell robust z, rep 1 = -0.523; Wolbachia per cell robust z, rep 2 = -0.782; Wolbachia per cell robust z, rep 3 = 0.292; outcome = inactive
fend (forked end) [DRSC17601] — Wolbachia per cell robust z, rep 1 = -1.81; Wolbachia per cell robust z, rep 2 = -1.31; Wolbachia per cell robust z, rep 3 = -0.833; outcome = inactive
fend (forked end) [DRSC17867] — Wolbachia per cell robust z, rep 1 = -0.332; Wolbachia per cell robust z, rep 2 = 0.139; Wolbachia per cell robust z, rep 3 = 0.0592; outcome = inactive
CG42823 [DRSC37837] — Wolbachia per cell robust z, rep 1 = -0.55; Wolbachia per cell robust z, rep 2 = -1.41; Wolbachia per cell robust z, rep 3 = -1.15; outcome = inactive
Prm (Paramyosin) [DRSC08941] — Wolbachia per cell robust z, rep 1 = 0.305; Wolbachia per cell robust z, rep 2 = 1.12; Wolbachia per cell robust z, rep 3 = 0.488; outcome = inactive
Prm (Paramyosin) [DRSC08942] — Wolbachia per cell robust z, rep 1 = 0.533; Wolbachia per cell robust z, rep 2 = 0.318; Wolbachia per cell robust z, rep 3 = 1.26; outcome = inactive
Prm (Paramyosin) [DRSC11255] — Wolbachia per cell robust z, rep 1 = 0.556; Wolbachia per cell robust z, rep 2 = 0.0976; Wolbachia per cell robust z, rep 3 = 0.319; outcome = inactive
Prm (Paramyosin) [DRSC26929] — Wolbachia per cell robust z, rep 1 = 0.556; Wolbachia per cell robust z, rep 2 = -0.859; Wolbachia per cell robust z, rep 3 = -1.26; outcome = inactive
CG4199 [DRSC18519] — Wolbachia per cell robust z, rep 1 = 0.435; Wolbachia per cell robust z, rep 2 = 1.21; Wolbachia per cell robust z, rep 3 = -2.91; outcome = inactive
CG4199 [DRSC21314] — Wolbachia per cell robust z, rep 1 = -0.116; Wolbachia per cell robust z, rep 2 = -0.0568; Wolbachia per cell robust z, rep 3 = 0.127; outcome = inactive
CG4199 [DRSC27951] — Wolbachia per cell robust z, rep 1 = -2.02; Wolbachia per cell robust z, rep 2 = -1.46; Wolbachia per cell robust z, rep 3 = -0.171; outcome = inactive
Ice2 (Interacts with the C terminus of ELL 2) [DRSC14268] — Wolbachia per cell robust z, rep 1 = 0.474; Wolbachia per cell robust z, rep 2 = -0.0643; Wolbachia per cell robust z, rep 3 = 0.154; outcome = inactive
Ric (Ras-related protein interacting with calmodulin) [DRSC07532] — Wolbachia per cell robust z, rep 1 = 0.405; Wolbachia per cell robust z, rep 2 = 0.292; Wolbachia per cell robust z, rep 3 = 1.14; outcome = inactive
Ric (Ras-related protein interacting with calmodulin) [DRSC26601] — Wolbachia per cell robust z, rep 1 = -2.05; Wolbachia per cell robust z, rep 2 = -2.76; Wolbachia per cell robust z, rep 3 = 0.239; outcome = active
Dh44-R2 + CG34234 [DRSC07278] — Wolbachia per cell robust z, rep 1 = -0.329; Wolbachia per cell robust z, rep 2 = -7.08; Wolbachia per cell robust z, rep 3 = -0.406; outcome = inactive
CG15203 [DRSC19650] — Wolbachia per cell robust z, rep 1 = 0.108; Wolbachia per cell robust z, rep 2 = -1.92; Wolbachia per cell robust z, rep 3 = 0.601; outcome = inactive
CG13042 [DRSC09923] — Wolbachia per cell robust z, rep 1 = -2.24; Wolbachia per cell robust z, rep 2 = -1.69; Wolbachia per cell robust z, rep 3 = 0.777; outcome = inactive
CG13042 [DRSC28618] — Wolbachia per cell robust z, rep 1 = 0.392; Wolbachia per cell robust z, rep 2 = 0.697; Wolbachia per cell robust z, rep 3 = -0.538; outcome = inactive
lin (lines) [DRSC07644] — Wolbachia per cell robust z, rep 1 = -1.09; Wolbachia per cell robust z, rep 2 = 0.427; Wolbachia per cell robust z, rep 3 = -0.173; outcome = inactive
lin (lines) [DRSC28074] — Wolbachia per cell robust z, rep 1 = -0.383; Wolbachia per cell robust z, rep 2 = 0.308; Wolbachia per cell robust z, rep 3 = 0.273; outcome = inactive
odd (odd skipped) [DRSC23024] — Wolbachia per cell robust z, rep 1 = 0.816; Wolbachia per cell robust z, rep 2 = 1.23; Wolbachia per cell robust z, rep 3 = -3.25; outcome = inactive
CG10481 [DRSC02063] — Wolbachia per cell robust z, rep 1 = 0.828; Wolbachia per cell robust z, rep 2 = 0.669; Wolbachia per cell robust z, rep 3 = 1.42; outcome = inactive
ng2 (new glue 2) [DRSC18803] — Wolbachia per cell robust z, rep 1 = -4.89; Wolbachia per cell robust z, rep 2 = -0.304; Wolbachia per cell robust z, rep 3 = -1.52; outcome = inactive
CG10969 [DRSC09811] — Wolbachia per cell robust z, rep 1 = 0.91; Wolbachia per cell robust z, rep 2 = 0.0449; Wolbachia per cell robust z, rep 3 = 0.622; outcome = inactive
CG10969 [DRSC29502] — Wolbachia per cell robust z, rep 1 = -0.935; Wolbachia per cell robust z, rep 2 = 0.0362; Wolbachia per cell robust z, rep 3 = -1.67; outcome = inactive
CR33701 (pseudo) [DRSC37882] — Wolbachia per cell robust z, rep 1 = -0.404; Wolbachia per cell robust z, rep 2 = -1.26; Wolbachia per cell robust z, rep 3 = -3.18; outcome = inactive
CG8701 [DRSC07237] — Wolbachia per cell robust z, rep 1 = 0.955; Wolbachia per cell robust z, rep 2 = -0.593; Wolbachia per cell robust z, rep 3 = -0.562; outcome = inactive
Xrp1 [DRSC15283] — Wolbachia per cell robust z, rep 1 = 1.15; Wolbachia per cell robust z, rep 2 = 1.51; Wolbachia per cell robust z, rep 3 = -6.54; outcome = inactive
Xrp1 [DRSC28718] — Wolbachia per cell robust z, rep 1 = -1.01; Wolbachia per cell robust z, rep 2 = 0.491; Wolbachia per cell robust z, rep 3 = -0.353; outcome = inactive
drm (drumstick) [DRSC00277] — Wolbachia per cell robust z, rep 1 = 0.251; Wolbachia per cell robust z, rep 2 = 1.1; Wolbachia per cell robust z, rep 3 = -0.37; outcome = inactive
